A mixed list of measured activities; the numbers were collected in NIAID ChemDB.

Common to all: tests in culture; organism: Hepatitis C virus; read by: replicon; measure: EC50

Two numbers with a dash give a range or band. Neighbouring rows are from separate reports. ECn: concentration that inhibits the pathogen or its effect by n%.

{"smiles": "COc1cc(C(=O)N2[C@@H](c3nccs3)[C@@H](c3cnccn3)C[C@@]2(Cc2cnc[nH]2)C(=O)O)ccc1C(C)(C)C", "strain": "Genotype 1A", "cells": "Huh7", "value": ">100 µM"}
{"smiles": "CNC(=O)c1c(-c2ccc(F)cc2)oc2cc(S(N)(=O)=O)c(OC(C)C)cc12", "cells": "Huh7", "value": ">30 µM"}
{"smiles": "COc1cccc(Cc2cccc(NC(N)=S)c2)c1", "cells": "Huh7", "value": "<1 µM"}
{"smiles": "O=C(O)c1ccc2c(C3CCCCC3)c3n(c2c1)CC(C(=O)N1CCCOCC1)=Cc1ccccc1-3", "cells": "Huh7", "value": "0.01–1 µM"}
{"smiles": "CCC[C@H](NC(=O)[C@@H]1[C@H]2CCC[C@H]2CN1C(=O)[C@@H](NC(=O)[C@@H](NC(=O)c1cnccn1)C1CCCCC1)C(C)(C)C)C(=O)C(=O)NC1CC1", "strain": "Mutant strain", "cells": "Huh7", "value": "8.1–12 µM"}
{"smiles": "CNC(=O)c1c(-c2ccc(F)cc2)oc2cc(-c3cc(C4CC4)no3)c(OC(C)C)cc12", "cells": "Huh7", "value": "<10 µM"}
{"smiles": "N#CC1=Cn2c(c(C3CCCCC3)c3ccc(C(=O)O)cc32)-c2ccccc2C1", "cells": "Huh7", "value": "1–10 µM"}
{"smiles": "COc1cc(C(=O)N2[C@@H](c3nccs3)[C@@H](c3cnccn3)C[C@@]2(Cn2cccn2)C(=O)O)ccc1C(C)(C)C", "strain": "Genotype 1A", "cells": "Huh7", "value": "<10 µM"}
{"smiles": "COC(=O)c1ccc2c(C3CCCCC3)c3n(c2c1)CC(C(=O)N1CCOCC1)=C(C)c1ccccc1-3", "cells": "Huh7", "value": "1–10 µM"}
{"smiles": "CN(C)c1cc2c(cc1F)c(=O)c(-c1noc(C(C)(C)c3ccc(F)cc3)n1)cn2Cc1ccc(C(F)(F)F)cc1", "strain": "1b", "value": "<2 µM"}
{"smiles": "Cc1cc(I)ccc1Nc1s[nH]c(=O)c1C#N", "cells": "Huh7", "value": "10–50 µM"}
{"smiles": "O=C(Nc1cccc(-c2cc(-c3c(N4CCOCC4)cccc3C(F)(F)F)no2)c1)C(Cl)Cl", "value": "≤10 µM"}
{"smiles": "C=CC[C@](C)(NC(=O)[C@H]1C[C@@H](Oc2nc(-c3ccco3)c(OC)c3ccccc23)CN1C(=O)[C@@H](NC(=O)OC(C)(C)C)C(C)(C)C)C(=O)NS(=O)(=O)C1CC1", "strain": "BMS", "cells": "Huh7", "value": "0.1–1 µM"}
{"smiles": "COc1ccc2c(c1)C=C(C(=O)N1C[C@@H](C)N(C)[C@@H](C)C1)Cn1c-2c(C2CCCCC2)c2ccc(C(=O)NS(=O)(=O)N(C)C)nc21", "strain": "1b", "value": "0.001–0.5 µM"}
{"smiles": "CNC(=O)c1c(-c2ccc(F)cc2)oc2cc(-c3nccs3)c(OC(C)C)cc12", "cells": "Huh7", "value": "<10 µM"}
{"smiles": "CCS(=O)(=O)NC(=O)c1ccc2c(C3CCCCC3)c3n(c2c1)CC(C(=O)N1CCOCC1)Cc1ccccc1-3", "cells": "Huh7", "value": "0.01–1 µM"}
{"smiles": "CN1CCN(c2cc3c(cc2F)c(=O)c(-c2noc(Cc4ccc(F)cc4)n2)cn3Cc2ccc(C(F)(F)F)cc2F)CC1", "strain": "1b", "value": ">10 µM"}
{"smiles": "N#Cc1c(Nc2ccc(Br)c(Cl)c2)s[nH]c1=O", "cells": "Huh7", "value": "<1 µM"}
{"smiles": "NC(=O)CCCC(c1ccccc1)c1nc(-c2cn(Cc3ccc(C(F)(F)F)cc3F)c3ccccc3c2=O)no1", "strain": "1b", "value": "<0.5 µM"}
{"smiles": "NC(=S)Nc1cccc(OCc2cccc(C(F)(F)F)c2)c1", "cells": "Huh7", "value": "<1 µM"}
{"smiles": "C=CCC(NC(=O)[C@H]1C[C@@H](Oc2ccnc3ccccc23)CN1C(=O)[C@@H](NC(=O)OC(C)(C)C)C(C)(C)C)C(=O)NS(=O)(=O)C1CC1", "strain": "BMS", "cells": "Huh7", "value": "0.1–1 µM"}
{"smiles": "CCCCc1ccc(CNC(N)=S)cc1", "cells": "Huh7", "value": "<1 µM"}
{"smiles": "CN(C)S(=O)(=O)NC(=O)c1ccc2c(C3CCCCC3)c3n(c2c1)CC(C(=O)N1CCOCC1)Cc1ccccc1-3", "cells": "Huh7", "value": "0.01–1 µM"}
{"smiles": "Fc1ccccc1-c1nc2ccn(Cc3ccc(-c4ccc(C(F)(F)F)cc4C(F)(F)F)nn3)cc-2n1", "strain": "1a", "value": "0.0036 µM"}
{"smiles": "O=c1c(-c2noc(Cc3ccccc3)n2)cn(Cc2ccc(Cl)cc2)c2cc(N3CCC(O)CC3)c(F)cc12", "strain": "1b", "value": "<2 µM"}
{"smiles": "CNC(=O)c1c(-c2ccc(F)cc2)oc2cc(-c3noc(C)n3)c(OC)cc12", "cells": "Huh7", "value": "<1 µM"}
{"smiles": "C=C[C@@H]1C[C@]1(NC(=O)[C@@H]1C[C@@H](Oc2nccc3ccccc23)CN1C(=O)OC(C)(C)C)C(=O)NS(=O)(=O)C1CC1", "strain": "BMS", "cells": "Huh7", "value": "0.1–1 µM"}
{"smiles": "NC(=O)COc1ccc2c(c1)S(=O)(=O)N=C(c1c(O)c3cc(F)ccc3n(CCC3CC3)c1=O)N2", "strain": "1b BK", "value": "0.051 µM"}
{"smiles": "N#Cc1c(Nc2ccc(I)cc2Cl)s[nH]c1=O", "cells": "Huh7", "value": "1–10 µM"}
{"smiles": "COc1cc(C(=O)N2[C@@H](c3ncc(C)s3)[C@@H](c3cnccn3)C[C@@]2(Cc2nccs2)C(=O)O)ccc1C(C)(C)C", "strain": "Genotype 1A", "cells": "Huh7", "value": "<10 µM"}
{"smiles": "CN(C)C1CCN(c2cccc(Cl)c2-c2cc(-c3cccc(NC(=O)C(Cl)Cl)c3)on2)C1", "value": "≤10 µM"}
{"smiles": "N#Cc1c(NC2CCc3ccccc32)s[nH]c1=O", "cells": "Huh7", "value": "1–10 µM"}
{"smiles": "COc1cc(C(=O)N2[C@@H](c3nccs3)[C@@H](c3cnccn3)C[C@@]2(Cc2ccccn2)C(=O)O)ccc1C(C)(C)C", "strain": "Genotype 1A", "cells": "Huh7", "value": "10–100 µM"}
{"smiles": "COc1cc2c(=O)c(-c3noc(Cc4ccsc4)n3)cn(Cc3ccc(Cl)cc3)c2cc1OC", "strain": "1b", "value": "<10 µM"}
{"smiles": "N#Cc1c(Nc2cc(Cl)nc(Cl)n2)s[nH]c1=O", "cells": "Huh7", "value": "1–10 µM"}
{"smiles": "O=C(Nc1ccc(F)c(-c2cc(-c3c(Cl)cccc3Cl)no2)c1)C(Cl)Cl", "value": "≤10 µM"}
{"smiles": "CN1CCN(c2cc3c(cc2F)c(=O)c(-c2noc(Cc4ccccc4)n2)cn3CCN2CCOCC2)CC1", "strain": "1b", "value": ">10 µM"}
{"smiles": "CC1(C)CCCCc2cccc3c2CN(C3)C(=O)O[C@@H]2C[C@@H](C(=O)NC3CCOB3O)N(C2)C(=O)[C@H](C(C)(C)C)NC(=O)OC1", "setting": "genotype 1a", "value": "0.78 µM"}
{"smiles": "O=C(Nc1cccc(-c2cc(-c3c(F)cccc3I)no2)c1)C(Cl)Cl", "value": "≤10 µM"}
{"smiles": "CN(C)c1ccc(Nc2s[nH]c(=O)c2C#N)c2ccccc12", "cells": "Huh7", "value": ">50 µM"}
{"smiles": "O=C(NS(=O)(=O)C1CC1)c1ccc2c(C3CCCCC3)c3n(c2c1)CC(C(=O)N1CCOCC1)Cc1ccccc1-3", "cells": "Huh7", "value": "0.01–1 µM"}
{"smiles": "C[C@H]1COB(O)C1NC(=O)[C@@H]1C[C@@H]2CN1C(=O)[C@H](C(C)(C)C)NC(=O)OCC(C)(C)CCCCc1cccc3c1CN(C3)C(=O)O2", "setting": "genotype 1b", "value": "1.7 µM"}
{"smiles": "CN1CCN(c2cc3c(cc2F)c(=O)c(-c2noc(C(CCCC#N)c4ccccc4)n2)cn3Cc2ccc(Cl)cc2)CC1", "strain": "1b", "value": "<10 µM"}
{"smiles": "CNC(=O)c1c(-c2ccc(F)cc2)oc2c(C)cc(OC)cc12", "cells": "Huh7", "value": "<10 µM"}
{"smiles": "CS(=O)(=O)c1cccc(F)c1-c1cc(-c2cccc(NC(=O)C(Cl)Cl)c2)on1", "value": ">10 µM"}
{"smiles": "COc1ccc2c(c1)[C@@H]1C[C@]1(C(=O)N1[C@@H]3CC[C@H]1CN(C)C3)Cn1c-2c(C2CCCCC2)c2ccc(C(=O)NS(=O)(=O)N(C)C)nc21", "strain": "1b", "value": "0.001–0.5 µM"}
{"smiles": "N#Cc1c(NCCc2cccs2)s[nH]c1=O", "cells": "Huh7", "value": ">50 µM"}
{"smiles": "C=CC[C@](C)(NC(=O)[C@H]1C[C@@H](Oc2nc(-c3ccoc3)c(OC)c3ccccc23)CN1C(=O)[C@@H](NC(=O)OC(C)(C)C)C(C)(C)C)C(=O)NS(=O)(=O)C1CC1", "strain": "BMS", "cells": "Huh7", "value": "<0.1 µM"}
{"smiles": "C[C@@]1(O)[C@H](O)[C@@H](CO)O[C@H]1N1C=CC(N)NC1=O", "strain": "1a", "cells": "Huh7", "value": "2.5 µM"}
{"smiles": "N#Cc1c(Nc2ccc(Br)c(C(F)(F)F)c2)s[nH]c1=O", "cells": "Huh7", "value": "1–10 µM"}
{"smiles": "COc1cc2c(=O)c(-c3noc(Cc4ccccn4)n3)cn(Cc3ccc(Cl)cc3)c2cc1OC", "strain": "1b", "value": ">10 µM"}
{"smiles": "Cc1ccc(Cl)c(-c2cc(-c3cccc(NC(=O)C(Cl)Cl)c3)on2)c1F", "value": "≤10 µM"}
{"smiles": "C=CC[C@](C)(NC(=O)[C@H]1C[C@@H](Oc2nccc3c4c(ccc23)OCO4)CN1C(=O)[C@@H](NC(=O)OC(C)(C)C)C(C)(C)C)C(=O)NS(=O)(=O)C1CC1", "strain": "BMS", "cells": "Huh7", "value": "<0.1 µM"}
{"smiles": "CNC(=O)c1c(-c2ccc(F)cc2)oc2cc(N(C)S(C)(=O)=O)c(OCC(=O)OC(C)(C)C)cc12", "cells": "Huh7", "value": "<1 µM"}
{"smiles": "C=C[C@H]1C[C@@]1(NC(=O)[C@@H]1C[C@@H](Oc2cc(C)nc3nc(C(F)(F)F)ccc23)CN1C(=O)[C@@H](NC(=O)OC(C)(C)C)C(C)(C)C)C(=O)NS(=O)(=O)C1CC1", "strain": "BMS", "cells": "Huh7", "value": "1–10 µM"}
{"smiles": "NC(=S)NC1Cc2ccccc2C1", "cells": "Huh7", "value": "<1 µM"}
{"smiles": "N#Cc1c(NCC2CC2)s[nH]c1=O", "cells": "Huh7", "value": ">50 µM"}
{"smiles": "COc1cc(C(=O)N2[C@@H](c3nccs3)[C@@H](c3cnccn3)C[C@@]2(CCS)C(=O)O)ccc1C(C)(C)C", "strain": "genotype 1b", "cells": "Huh7", "value": "0.1–10 µM"}
{"smiles": "CNC(=O)c1c(-c2ccc(F)cc2)oc2cc(N(CC(C)=O)S(C)(=O)=O)c(OC(C)C)cc12", "cells": "Huh7", "value": "<1 µM"}
{"smiles": "Cc1cc(OCc2ccccc2)ccc1NC(N)=S", "cells": "Huh7", "value": "<1 µM"}
{"smiles": "COc1ccc2c(c1)C=C(C(=O)N1C[C@@H](C)O[C@@H](C)C1)Cn1c-2c(C2CCCCC2)c2ccc(C(=O)NS(=O)(=O)N(C)C)nc21", "strain": "1b", "value": "0.001–0.5 µM"}
{"smiles": "NC(=S)NCc1ccc(OC(F)(F)F)cc1", "cells": "Huh7", "value": "<1 µM"}
{"smiles": "C=C[C@@H]1C[C@]1(NC(=O)[C@@H]1C[C@@H](Cc2cc(OC)cc(-c3ccccn3)n2)CN1C(=O)[C@@H](NC(=O)OC(C)(C)C)C(C)(C)C)C(=O)NS(=O)(=O)C1CC1", "strain": "BMS", "cells": "Huh7", "value": "<0.1 µM"}
{"smiles": "NC(=S)Nc1ccc(N2CCCCC2)c(C(F)(F)F)c1", "cells": "Huh7", "value": "<1 µM"}
{"smiles": "C=CCC(NC(=O)[C@H]1C[C@@H](Oc2cc(C(F)(F)F)nc3c(C(F)(F)F)cccc23)CN1C(=O)[C@@H](NC(=O)OC(C)(C)C)C(C)(C)C)C(=O)NS(=O)(=O)C1CC1", "strain": "BMS", "cells": "Huh7", "value": "0.1–1 µM"}
{"smiles": "O=C(Nc1cccc(-c2cc(-c3ccccc3-c3ccccc3)no2)c1)C(Cl)Cl", "value": "≤10 µM"}
{"smiles": "NC(=S)Nc1cccc(OCc2ccc(-c3ccccc3)cc2)c1", "cells": "Huh7", "value": "<1 µM"}